From article PMC8442610 come the findings set out here.

For assay [1], the target named is Biotin-SBP (human). Nature of the assay: BLI. Background: Biolayer interferometry detects binding as a change in optical thickness at a sensor tip.
Assay [2] has as its target Biotin-SBP-PEG4 (human). Nature of the assay: BLI.

One may read the Kd as the constant that tells how readily two partners part at equilibrium. For “SARS-CoV-2 Spike RBD-His (from UniProt P0DTC2) (domain or fragment; other documents disagree on this pair)”, the values for the Kd in assay [1] and in assay [2] were 4.4 µM and 2.9 µM, respectively.
